Data on one compound can be found in article PMC6838151 (Scientific Reports, 2019).

This data set has as its system hASCs. Put plainly: Confocal imaging of mitochondrial network (MitoRed) and F-actin (Phalloidin Atto 590) in hASCs. It counts as cell-based, human. Particulars: 20 µM, 24 h. As to the method:
The mitochondrial network was visualized using MitoRed staining. After 24-hours treatment with either Ke, KeP or KeOP, the media were removed and replaced with MitoRed dye in 1:1000 dilution in fresh complete media. Cells were incubated for 30 minutes at 37 °C, then washed with Phosphate Buffered Saline (PBS), fixed with 4% paraformaldehyde (PFA) solution, washed three times and nuclei were counterstained with diamidino-2-phenylindole (DAPI).
In order to perform F-actin imaging, cells were fixed with 4% PFA solution, washed with PBS and then permeabilized using 0.5% TX-100 (incubation 15 minutes, room temperature). The cells were rinsed and incubated with Phalloidin-Atto 590 solution in PBS (dilution 1:1000) at 37 °C for 30 minutes in the dark. After washing, the cells were counterstained with DAPI.
Cells were observed and images were taken using confocal microscopy performed with a Leica TCS-SP8 laser scanning confocal microscope. Data were further processed with the use of ImageJ software.

With `O=P(CN1CCN(c2ccc(OC[C@H]3CO[C@](Cn4ccnc4)(c4ccc(Cl)cc4Cl)O3)cc2)CC1)(c1ccccc1)c1ccccc1` (racemic) [KeOP, Ph2P(O)CH2-Ke], the “growth pattern (phalloidin staining)” value is given as “multilayer growth pattern”.
